In publication PMC7414181:

Legend:
[1] = biological target: YU2G471R gp120 (HIV-1 strain YU2)
[2] = biological target: YU2G458D gp120 (HIV-1 strain YU2)
[3] = biological target: YU2E466K gp120 (HIV-1 strain YU2)

**Q.** How did the Table S5: IC50 of CD4-Ig in the in vitro neutralisation of YU2G471R pseudovirus on TZM-bl cells (blocks Env from CD4 on target cells) [1] turn out when “CD4-Ig (from UniProt P01730) (Fc fusion)” was run?
**A.** The Table S5: IC50 of CD4-Ig in the in vitro neutralisation of YU2G471R pseudovirus on TZM-bl cells (blocks Env from CD4 on target cells) was 34.2 µg/mL.

**Q.** What about the Table S5: IC50 of CD4-Ig in the in vitro neutralisation of YU2G458D pseudovirus on TZM-bl cells (blocks Env from CD4 on target cells) [2] of the same substance?
**A.** The Table S5: IC50 of CD4-Ig in the in vitro neutralisation of YU2G458D pseudovirus on TZM-bl cells (blocks Env from CD4 on target cells) was 40 µg/mL.

**Q.** And the Table S5: IC50 of CD4-Ig in the in vitro neutralisation of YU2E466K pseudovirus on TZM-bl cells (blocks Env from CD4 on target cells) [3]?
**A.** The Table S5: IC50 of CD4-Ig in the in vitro neutralisation of YU2E466K pseudovirus on TZM-bl cells (blocks Env from CD4 on target cells) was 32.2 µg/mL.
